Test results reported in ChEMBL document CHEMBL6177980 (J Med Chem, 2025).

Experiments:
[1] = system: Severe fever with thrombocytopenia syndrome virus; assay: Antiviral activity against SFTSV infected in mouse harboring IFNAR1tm1Agt assessed as reduction in viral load in spleen treated orally once daily for 7 days; conditions: route po, time 7.0 day
[2] = system: Severe fever with thrombocytopenia syndrome virus; assay: In vivo antiviral activity against SFTSV infected in mouse harboring IFNAR1tm1Agt assessed as improvement in platelet count treated orally once daily for 7 days; conditions: dose 2.5-100 mg/kg, route po, time 7.0 day
[3] = system: Severe fever with thrombocytopenia syndrome virus; assay: Antiviral activity against SFTSV infected in mouse harboring IFNAR1tm1Agt assessed as reduction in viraemia in spleen treated orally once daily for 7 days; conditions: route po, time 7.0 day

Measured: Activity

CC(C)C(=O)OC[C@@]1(F)O[C@@H](n2ccc(=O)n(COC(=O)c3cccnc3)c2=O)[C@H](OC(=O)C(C)C)[C@@H]1OC(=O)C(C)C
active: [1] Dose-dependent-effect | [2] Dose-dependent-effect | [3] Dose-dependent-effect
